A mixed list of measured activities; the numbers were collected in NIAID ChemDB.

Common to all: whole-cell or culture tests; organism: Cryptococcus neoformans

Lines come from different laboratories, so protocols vary. ECn is the concentration giving n% inhibition of infection, replication or growth. Zone: diameter of growth inhibition. MIC50, MIC90 and the like: level of inhibition, or share of isolates inhibited. An empty or dashed field is not shown. Inhibition is in % at the dose shown (toxicity tests: loss of growth or viability).

SMILES,strain,method,setting,measure,tested at,result
C[C@@H](n1cnc2cc(Cl)ccc2c1=O)[C@](O)(Cn1cncn1)c1ccc(F)cc1F,Isolate 163.99,-,-,MFC,-,>20 µg/mL
CC1(C)O[C@H]2[C@H](O)[C@@H](N=[N+]=[N-])C=C(c3ccc(C=O)cc3)[C@H]2O1,ATCC 32264,broth dilution / turbidity,-,inhibition,15.6 µg/mL,0%
C[C@H]1[C@H](O)[C@@H](C)/C=C/C=C/C=C/C=C/C=C/C=C/C=C/[C@H](O[C@@H]2O[C@H](C)[C@@H](O)[C@H](N)[C@@H]2O)C[C@@H]2O[C@](O)(C[C@@H](O)C[C@@H](O)CC[C@H](O)[C@@H](O)C[C@@H](O)CC(=O)O[C@H]1C)C[C@H](O)[C@H]2C(=O)O,15 isolates,-,-,MIC50,-,0.125 µg/mL
COc1ccc2c(c1)C(=O)/C(=C/c1ccc3c(c1)OCO3)CS2,93/V,-,-,MIC,-,25 µg/mL
O=C(/C=C/c1ccc(Br)cc1)OC1CCN(CC(O)(Cn2cncn2)c2ccc(F)cc2F)CC1,BLS108,broth dilution,-,MIC80,-,0.458 µM
N=C(N)c1ccc2nc(-c3ccc(-c4nc5ccc(C(=N)N)cc5[nH]4)[nH]3)[nH]c2c1,9 strains,-,-,Geometric mean MIC,-,0.39 µg/mL
CN(C)c1ccc(/C=C2\SC(=O)N(CC(O)(Cn3nccn3)c3ccc(F)cc3F)C2=O)cc1,-,-,-,MIC80,-,8.24 µg/mL
Oc1ccccc1N=Cc1ccc(F)cc1,VM-MCMMPI,-,-,MIC99,-,8 µg/mL
CNC(CCC(C)C1CC[C@@]2(C)C3=C(CCC12C)C1(C)CC[C@H](O)C(C)(C)C1CC3)C(C)C,A.34144,-,-,MIC90,-,0.78 µg/mL
COC1CC2CCC(C)C(O)(O2)C(=O)C(=O)N2CCCCC2C(=O)OC(C(C)CC2CCC(O)C(OC)C2)CC(=O)C(C)/C=C(\C)[C@@](O)(c2ccc(C)s2)C(OC)C(=O)C(C)CC(C)/C=C/C=C/C=C/1C,FRR1,-,-,MFC,-,>100 µg/mL
Oc1cccc(C=Nc2ccccc2O)c1,C-3-1,-,-,MIC99,-,2.8 µg/mL
CC(C)C[C@@H]1NC(=O)[C@H](C(C)C)NC1=O,-,agar diffusion / agar,-,zone,16 µg/mL,29 mm
COC(=O)[C@H]1[C@@H]2C[C@@H](O[C@@H]3O[C@H](C)[C@@H](O)[C@H](N)[C@@H]3O)/C=C/C=C/C=C/C=C/C=C/C=C/C=C/[C@H](C)[C@@H](O)[C@H](C)[C@H](C)OC(=O)C[C@H](O)C[C@H](O)[C@@H](O)CC[C@H](O)C[C@H](O)C[C@](O)(C[C@@H]1O)O2,-,-,-,MFC,-,0.8 µM
O=C1S/C(=C\c2ccco2)C(=O)N1CC(O)(Cn1nccn1)c1ccc(F)cc1F,-,-,-,MIC80,-,4.62 µg/mL
CCCCn1nc(-c2cc(C)on2)c(N=O)c1C,-,-,-,MFC,-,9 µM
OC(Cn1cncn1)(Cn1cncn1)c1ccc(F)cc1F,CNCYP51,-,-,MIC80,-,13.45 µg/mL
O=C1/C(=C/c2ccc3c(c2)OCO3)CSc2ccccc21,25,-,-,MIC,-,1.5 µg/mL
O=C(OC1CCN(CC(O)(Cn2cncn2)c2ccc(F)cc2F)CC1)C(F)(F)Cl,BLS108,broth dilution,-,MIC80,-,35.5 µM
CC(C)C(CCC(C)C1CC[C@@]2(C)C3=C(CCC12C)C1(C)CC[C@H](O)C(C)(C)C1CC3)NCc1ccccc1,A.34144,-,-,MIC90,-,3.13 µg/mL
CCC(C)CC(C)CCCCCCCCC(=O)N[C@H]1C[C@@H](O)[C@H](NCCN)NC(=O)[C@@H]2[C@@H](O)CCN2C(=O)[C@H]([C@H](O)CCN)NC(=O)[C@H]([C@H](O)[C@@H](O)c2ccc(O)cc2)NC(=O)[C@@H]2C[C@@H](O)CN2C(=O)[C@H]([C@@H](C)O)NC1=O,19 isolates,-,-,Mean MIC,-,23.9 µg/mL
C[C@@H]([C@H](N)C(=O)N[C@H](C(=O)O)[C@H]1O[C@@H](n2ccc(=O)[nH]c2=O)[C@H](O)[C@@H]1O)[C@H](O)c1ccc(O)cn1,38 isolates,-,-,Geometric mean MIC,-,127 µg/mL
CC1=Cc2c(CO)c(O)c(C)c(O)c2CO1,ATCC90112,agar diffusion,-,zone,100 µM,13 mm
COC1CC2CCC(C)C(O)(O2)C(=O)C(=O)N2CCCCC2C(=O)OC(C(C)CC2CCC(O)C(OC)C2)CC(=O)C(C)/C=C(\C)C(O)C(OC)C(=O)C(C)C[C@](C)(N(O)C(=O)NN2CCCCC2)/C=C/C=C/C=C/1C,WILD TYPE,-,-,MFC,-,3.12 µg/mL
Cc1nc(NCCCCNc2ccnc3cc(Cl)ccc23)nc(-c2ccccc2[N+](=O)[O-])c1C(=O)OC(C)C,C-3-1,-,-,MIC99,-,2 µg/mL
Cn1cccc1/C=C1\SC(=O)N(CC(O)(Cn2nccn2)c2ccc(F)cc2F)C1=O,-,-,-,MIC80,-,4.49 µg/mL
CC[C@@H]([C@H](C)O)n1ncn(-c2ccc(N3CCN(c4ccc(OC[C@@H]5CO[C@@](Cn6cncn6)(c6ccc(F)cc6F)C5)cc4)CC3)cc2)c1=O,10 strains,-,-,MFC90,-,0.5 µg/mL
CCC(C)n1ncn(-c2ccc(N3CCN(c4ccc(OC[C@H]5CO[C@](Cn6cncn6)(c6ccc(Cl)cc6Cl)O5)cc4)CC3)cc2)c1=O,12 strains,-,-,MIC50,-,0.25 µg/mL
Clc1ccc(COC(Cn2ccnc2)c2ccc(Cl)cc2Cl)c(Cl)c1,12 strains,-,-,Mean MIC,-,0.24 µg/mL
COc1ccc(/C=C2\COc3ccc(SC)cc3C2=O)cc1,93/V,-,-,MIC,-,50 µg/mL
Nc1[nH]c(=O)ncc1F,42 isolates (HIV+),-,-,Mean MIC,-,2.06 µg/mL
N#Cc1ccc(/C=C2\SC(=O)N(CC(O)(Cn3nccn3)c3ccc(F)cc3F)C2=O)cc1,-,-,-,MIC80,-,68.46 µg/mL
Nc1ncccc1-c1cc(Cc2ccc(COc3ccccn3)cc2)no1,-,broth dilution,-,MIC50,-,0.25 µg/mL
CCCn1nc(-c2cc(C)on2)c(N=O)c1C,-,-,-,MFC,-,2.4 µM
CCCCc1oc2ccccc2c1C(=O)c1cc(I)c(OCCN(CC)CC)c(I)c1,JEC21,-,-,inhibition,5 µM,100%
CCOC(=O)c1c(C)nc(NCCCCNc2ccnc3cc(Cl)ccc23)nc1-c1ccc(F)cc1,27JF,-,-,MIC99,-,4 µg/mL
C=CC(C)(C)c1cc(C2CC(=O)c3c(cc(O)c(CC=C(C)C)c3O)O2)c(O)cc1O,CSF 20772,agar diffusion / agar,-,zone,2 mg/mL,12 mm
O=C1/C(=C/c2ccccc2)CSc2ccc(Cl)cc21,25,-,-,MIC,-,6 µg/mL
CC(C)(C)OC(=O)N1CCC(n2cc(-c3noc(=O)[nH]3)nn2)CC1,NCIM576,agar,-,inhibition,200 µg/mL,0%
C[C@@H]1[C@H](O)[C@@H](C)/C=C/C=C/C=C/C=C/C=C/C=C/C=C/[C@H](O[C@@H]2O[C@H](C)[C@@H](O)[C@H](N)[C@@H]2O)C[C@@H]2O[C@](O)(C[C@@H](O)C[C@@H](O)[C@H](O)CC[C@@H](O)C[C@@H](O)CC(=O)O[C@H]1C)C[C@H](O)[C@H]2C(=O)O,JEC21,broth dilution,-,EC50,-,>10 µg/mL
O=C1/C(=C/c2ccc3ccccc3c2)CSc2ccc(Cl)cc21,Farwania,-,-,MIC,-,12.5 µg/mL
CCC(C)n1ncn(-c2ccc(N3CCN(c4ccc(OC[C@H]5CO[C@](Cn6cncn6)(c6ccc(Cl)cc6Cl)O5)cc4)CC3)cc2)c1=O,37 strains,-,-,MIC50,-,0.094 µg/mL
O=C1S/C(=C\c2ccc(Cl)cc2)C(=O)N1CC(O)(Cn1nccn1)c1ccc(F)cc1F,-,-,-,MIC80,-,67.1 µg/mL
NCCCC[C@H](NC(=O)[C@H](CCCN=C(N)N)NC(=O)[C@H](CCCN=C(N)N)NC(=O)[C@H](CCCCN)NC(=O)[C@H](CCCCN)NC(=O)[C@@H](N)CCCCN)C(=O)N[C@@H](CCCN=C(N)N)C(=O)O,ATCC 32264,-,-,inhibition,50 µM,19%
CC1=C(O)C(=O)C=C(O)C1=O,-,agar diffusion,-,zone,100 µM,0 mm
CC(C)(C)NC(=O)[C@@H]1CN(Cc2cccnc2)CCN1C[C@@H](O)C[C@@H](Cc1ccccc1)C(=O)N[C@H]1c2ccccc2C[C@H]1O,H99,colony count,72 h,inhibition,10 µM,28%
O=C1/C(=C/c2ccccc2[N+](=O)[O-])CCc2ccccc21,93/V,-,-,MIC,-,100 µg/mL
CCC(C)/C=C1\SC(=O)N(CC(O)(Cn2nccn2)c2ccc(F)cc2F)C1=O,-,-,-,MIC80,-,1.23 µg/mL
Cn1nc(Cc2ccc(Cl)cc2)c2ccccc2c1=O,ATCC 32264,broth dilution,-,MIC50,-,3.9 µg/mL
CCOC(=O)c1c(C)nc(NCCCNc2ccnc3cc(Cl)ccc23)nc1-c1ccccc1,27JF,-,-,MIC99,-,16 µg/mL
COc1ccc(/C=C2\COc3ccccc3C2=O)cc1OC,Farwania,-,-,MIC,-,25 µg/mL
C[C@@H](n1ncn(-c2ccc(OCC(F)(F)C(F)F)cc2)c1=O)[C@](O)(Cn1cncn1)c1ccc(F)cc1F,DUMC 124.96,-,-,MFC,-,0.5 µg/mL
CC(C)C(N)CCC(C)C1CC[C@@]2(C)C3=C(CCC12C)C1(C)CC[C@H](O)C(C)(C)C1CC3,B42419,-,-,MIC90,-,0.78 µg/mL
C[C@@H](c1ncncc1F)[C@](O)(Cn1cncn1)c1ccc(F)cc1F,-,-,-,MIC50,-,0.015 µg/mL
CCOC(=O)CN(CCCOc1ccc(Br)cc1)CC(O)(Cn1cncn1)c1ccc(F)cc1F,-,-,-,inhibition,1 µg/mL,80%
CCn1nc(C)c(N=O)c1-c1cc(C)on1,-,-,-,MFC,-,0.1 µM
C[C@@H](c1ncncc1F)[C@](O)(Cn1cncn1)c1ccc(F)cc1F,-,broth dilution,-,MIC50,-,0.03 µg/mL
C[C@H]([C@](O)(Cn1cncn1)c1ccc(F)cc1F)S(C)(=O)=O,R716 (AZOLE-R),-,-,EC50,-,1.8 µM
Cc1ccccc1/C=C1\SC(=O)N(CC(O)(Cn2nccn2)c2ccc(F)cc2F)C1=O,CNCYP51,-,-,MIC80,-,>100 µg/mL
C=C1CO[C@H]2[C@@H](C)OC(OC[C@@]34C[C@H]5[C@H](C)CC[C@@H]5[C@@]5(C=O)C[C@@H]3C=C(C(C)C)[C@@]45C(=O)O)C[C@@H]12,22 strains (serotype C),-,-,MIC50,-,0.5 µg/mL
CN[C@H]1CC[C@@H](c2ccc(Cl)c(Cl)c2)c2ccccc21,H99,broth dilution,-,MIC90,-,6 µg/mL
CC(C)C(CCC(C)C1CC[C@@]2(C)C3=C(CCC12C)C1(C)CC[C@H](O)C(C)(C)C1CC3)SCc1ccccc1,A.34144,-,-,MIC90,-,25 µg/mL
CC[C@@H]([C@H](C)O)n1ncn(-c2ccc(N3CCN(c4ccc(OC[C@@H]5CO[C@@](Cn6cncn6)(c6ccc(F)cc6F)C5)cc4)CC3)cc2)c1=O,N32,-,-,MIC,-,0.125 µg/mL
C[C@H]1[C@H](O)[C@@H](C)/C=C/C=C/C=C/C=C/C=C/C=C/C=C/[C@H](O[C@@H]2O[C@H](C)[C@@H](O)[C@H](N)[C@@H]2O)C[C@@H]2O[C@](O)(C[C@@H](O)C[C@@H](O)CC[C@H](O)[C@@H](O)C[C@@H](O)CC(=O)O[C@H]1C)C[C@H](O)[C@H]2C(=O)O,Clinical isolate,broth dilution / absorbance,-,MIC99,-,<0.195 µM
OC(CN1CCN(c2ccc(OCc3ccncc3)cc2)CC1)(Cn1cncn1)c1ccc(F)cc1F,ATCC32609,-,-,MIC80,-,2 µg/mL

For reference, 7 entries again:

O=C1S/C(=C\c2ccc(Cl)cc2)C(=O)N1CC(O)(Cn1nccn1)c1ccc(F)cc1F ; measure: MIC80 ; result: 67.1 µg/mL
Nc1ncccc1-c1cc(Cc2ccc(COc3ccccn3)cc2)no1 ; method: broth dilution ; measure: MIC50 ; result: 0.25 µg/mL
COc1ccc(/C=C2\COc3ccc(SC)cc3C2=O)cc1 ; strain: 93/V ; measure: MIC ; result: 50 µg/mL
CN(C)c1ccc(/C=C2\SC(=O)N(CC(O)(Cn3nccn3)c3ccc(F)cc3F)C2=O)cc1 ; measure: MIC80 ; result: 8.24 µg/mL
NCCCC[C@H](NC(=O)[C@H](CCCN=C(N)N)NC(=O)[C@H](CCCN=C(N)N)NC(=O)[C@H](CCCCN)NC(=O)[C@H](CCCCN)NC(=O)[C@@H](N)CCCCN)C(=O)N[C@@H](CCCN=C(N)N)C(=O)O ; strain: ATCC 32264 ; measure: inhibition ; tested at: 50 µM ; result: 19%
CNC(CCC(C)C1CC[C@@]2(C)C3=C(CCC12C)C1(C)CC[C@H](O)C(C)(C)C1CC3)C(C)C ; strain: A.34144 ; measure: MIC90 ; result: 0.78 µg/mL
CN[C@H]1CC[C@@H](c2ccc(Cl)c(Cl)c2)c2ccccc21 ; strain: H99 ; method: broth dilution ; measure: MIC90 ; result: 6 µg/mL